“And” between values parts separate entries of the source, which are not always exact repeats. Identical values can stand only once.
Legend:
Assay in all cases: SPR; CA hexamer amine-coupled to a ProteOn GLH chip, peptide injected as analyte; 25 °C; 1x PBS pH 7.4, 3% DMSO, 0.005% polysorbate 20; reference surface IgG b12; 1:1 binding model; KD from a Langmuir isotherm equilibrium fit and from a global kinetic fit; triplicate
[1] = biological target: HIV-1 CA hexamer from clade A1 (isolate 92UG037.1) (HIV-1 isolate 92UG037.1 (clade A1))
[2] = biological target: HIV-1 CA hexamer from clade A2 (isolate CDKTB48) (HIV-1 isolate CDKTB48 (clade A2))
[3] = biological target: HIV-1 CA hexamer from clade B (isolate NL4-3) (HIV-1 isolate NL4-3 (clade B))
[4] = biological target: HIV-1 CA hexamer from clade D (isolate 94UG114.1) (HIV-1 isolate 94UG114.1 (clade D))

For CPSF-6 peptide (313-…-327), the Kd [1] was 181 µM and 257 µM, the Kd [2] was 197 µM and 210 µM and the Kd [3] was 98.6 µM and 93.8 µM. For the same substance, the Kd [4] was 70 µM and 72.8 µM.
